Data published in patent US5565425A (Snow Brand Milk Products Co., Ltd, priority 1993, dated 1996).

Assays:
[1] = general procedure: Fmoc solid-phase peptide synthesis; p-hydroxymethylphenoxymethylpolystyrene (HMP) resin; benzhydrylamine resin (Boc examples); conditions: HPLC analysis
[2] = solid-phase peptide synthesis; conditions: whole synthesis, HPLC analysis, scale of the general procedure 0.25 mmol
[3] = general procedure: Fmoc solid-phase peptide synthesis; HMP resin; conditions: whole synthesis, scale 0.25 mmol
[4] = whole synthesis, scale of the general procedure 0.25 mmol

Substance: PEPTIDE1{C.F.Q.W.Q.R.N.M.R.K.V.R.G.P.P.V.S.C}$PEPTIDE1,PEPTIDE1,1:R3-18:R3$$$V2.0
- final HPLC purity ([1]; oxidative folding step): 93%

Substance: PEPTIDE1{C.R.R.W.Q.W.R.M.K.K.L.G.A.P.S.I.T.C}$PEPTIDE1,PEPTIDE1,1:R3-18:R3$$$V2.0
- final purity (method not given) [1, 4]: 94%

Substance: PEPTIDE1{[ac].C.F.Q.W.Q.R.N.M.R.K.V.R.G.P.P.V.S.C.[am]}$PEPTIDE1,PEPTIDE1,2:R3-19:R3$$$V2.0
- final purity (method not given) [2]: 91%

Substance: PEPTIDE1{[ac].C.R.R.W.Q.W.R.M.K.K.L.G.A.P.S.I.T.C.[am]}$PEPTIDE1,PEPTIDE1,2:R3-19:R3$$$V2.0
- final purity (method not given) ([1]; oxidative folding step): 95%

Substance: [19CysSH, 36CysSH] bovine LF (17-41)
- final purity (method not given) [1, 4]: 91%

Substance: [20CysSH, 37CysSH] human LF (20-37)
- crude mass [3]: 500 mg
- isolated mass [3]: 340 mg

Substance: [20CysSH, 37CysSH]] human LF (18-42)
- final purity (method not given) [1, 4]: 94%

For some assays here: Strings that start with PEPTIDE1 are HELM notation: dots part the residues, brackets hold end groups and non-standard residues.
